Measured values from several laboratories, pooled; numbers as filed in NIAID ChemDB.

Shared fields: tests in culture; organism: Human cytomegalovirus; measure: EC50

Neighbouring rows are from separate reports. ECn: concentration that inhibits the pathogen or its effect by n%.

{"structure": "N#CCn1ccc(=O)n(Cc2c(F)cccc2F)c1=O", "strain or isolate": "AD169", "value": ">180 µM"}
{"structure": "Cc1cn([C@H]2C=C[C@@H](CO)O2)c(=O)[nH]c1=O", "cells": "NHDF", "value": ">100 µM"}
{"structure": "Nc1ncnc2c1ccn2[C@H]1C[C@H](O)[C@@H](CO)O1", "cells": "HEL", "strain or isolate": "AD169", "value": ">100 µM"}
{"structure": "CCCCCCCCCCCCCCCCCCOC[C@H](COP(=O)(O)C(=O)O)OCc1ccccc1", "cells": "MRC-5", "strain or isolate": "AD169", "value": "0.64 µM"}
{"structure": "C[C@H]1O[C@@H](n2c(Cl)nc3cc(Cl)c(Cl)cc32)[C@H](O)C1O", "value": "0.35 µM"}
{"structure": "COC(=O)CN(CC(=O)OC)P(=O)(OC[C@H]1O[C@@H](n2cnc3c(N)ccnc32)C[C@@H]1O)Oc1ccccc1", "cells": "HEL", "strain or isolate": "AS-169", "value": ">100 µM"}
{"structure": "CCCCNc1nc2cc(Cl)c(Cl)cc2n1[C@H]1C[C@@H](CO)[C@H](O)[C@@H]1O", "cells": "MRC-5", "value": "1.1 µM"}
{"structure": "O=c1ccn(Cc2c(F)cccc2F)c(=O)n1-c1ccccc1", "strain or isolate": "AD169", "value": ">64 µM"}
{"structure": "Nc1nccc2c1ncn2[C@H]1C[C@H](O)[C@@H](COP(=O)(O)COC(=O)[C@@H](N)CC(=O)O)O1", "cells": "HEL", "strain or isolate": "AD169", "value": ">100 µM"}
{"structure": "CN(C)c1cccc2c(S(=O)(=O)Nc3ccc(NC(=O)C(C)(C)CO)cc3)cccc12", "value": "0.27 µM"}
{"structure": "Cc1cn([C@H]2C[C@H](N=[N+]=[N-])[C@@H](CO)O2)c(=O)[nH]c1=O", "cells": "NHDF", "value": ">100 µM"}
{"structure": "OC[C@H]1C[C@]1(CO)Cn1c(Br)nc2cc(Cl)c(Cl)cc21", "cells": "MRC-5", "value": "2 µg/mL"}
{"structure": "Cc1ccc(C)c(Cn2c(=O)ccn(CC#N)c2=O)c1", "strain or isolate": "AD169", "value": ">186 µM"}
{"structure": "Nc1ccn(C[C@@H](CO)OCP(=O)(O)O)c(=O)n1", "cells": "HEL", "strain or isolate": "AD169", "value": "0.8 µM"}
{"structure": "O=C(NCc1ccc(Cl)cc1)c1c[nH]c2c(F)cc(CCCCO)cc2c1=O", "value": "0.14 µM"}
{"structure": "COC(=O)CN(CC(=O)OC)P(=O)(OC[C@H]1O[C@@H](n2cc(/C=C/Br)c(=O)[nH]c2=O)C[C@@H]1O)Oc1ccccc1", "cells": "HEL", "strain or isolate": "AD169", "value": ">100 µM"}
{"structure": "OC[C@H]1O[C@@H](n2c(Br)nc3cc(Cl)c(Cl)cc32)[C@H](O)[C@@H]1O", "value": "0.7 µM"}
{"structure": "Nc1nccc2c1ncn2[C@H]1C[C@H](O)[C@@H](CO)O1", "cells": "HEL", "strain or isolate": "AD169", "value": ">100 µM"}
{"structure": "Nc1nc(N)c2ncn([C@@H]3S[C@H](CO)[C@H](O)[C@@H]3F)c2n1", "value": "0.66 µg/mL"}
{"structure": "Nc1ncnc2c1ncn2CCOCP(=O)(O)O", "cells": "NHDF", "value": "39 µM"}
{"structure": "Cc1cc(C)cc(Cn2c(=O)ccn(Cc3ccccc3)c2=O)c1", "strain or isolate": "AD169", "value": "1 µM"}
{"structure": "C[C@H](Cn1cnc2c(NC3CC3)ncnc21)OCP(=O)(O)O", "strain or isolate": "DAVIS", "value": "0.12 µg/mL"}